Results of unrelated studies side by side (data: NIAID ChemDB).

Common to all: growth or infection tests; species: Mycobacterium avium complex; endpoint: MIC

An empty or dashed field is not shown. Rows are shuffled and stem from different studies.

structure,strain or isolate,method,result
NC[C@@H]1O[C@H](O[C@H]2[C@@H](O)[C@H](O[C@@H]3[C@@H](O)[C@H](N)C[C@H](N)[C@H]3O[C@H]3O[C@H](CO)[C@@H](O)[C@H](O)[C@H]3N)O[C@@H]2CO)[C@H](N)[C@@H](O)[C@@H]1O,PLR-3/HIV+,-,1.56 µg/mL
CC[C@@H](CO)NCCN[C@@H](CC)CO,3217,-,8 µg/mL
NCC1CCN(c2c(F)cc3c(=O)c(C(=O)O)cn(C4CC4)c3c2F)C1,1915112,-,16 µg/mL
CO[C@H]1/C=C/O[C@@]2(C)Oc3c(C)c(O)c4c(O)c(c(/C=N/N5CCN(C)CC5)c(O)c4c3C2=O)NC(=O)/C(C)=C\C=C\[C@H](C)[C@H](O)[C@@H](C)[C@@H](O)[C@@H](C)[C@H](OC(C)=O)[C@@H]1C,3219,-,2 µg/mL
CC[C@@H](CO)NCCN[C@@H](CC)CO,1110/HIV-,-,<2 µg/mL
C[C@@H]1CN(c2c(F)c(N)c3c(=O)c(C(=O)O)cn(C4CC4)c3c2F)C[C@H](C)N1,19,broth dilution,1 µg/mL
CN1CCN(c2cc3c(cc2F)c(=O)c(C(=O)O)cn3-c2ccc(F)cc2)CC1,3220,-,32 µg/mL
NCC[C@H](O)C(=O)N[C@@H]1C[C@H](N)[C@@H](O[C@H]2O[C@H](CN)[C@@H](O)[C@H](O)[C@H]2O)[C@H](O)[C@H]1O[C@H]1O[C@H](CO)[C@@H](O)[C@H](N)[C@H]1O,562/HIV+,-,1.25 µg/mL
O=C(O)c1cn(C2CC2)c2c(F)c(N3CC4CCCC(C3)N4)c(F)cc2c1=O,1988557,-,4 µg/mL
NC[C@H]1O[C@H](O[C@H]2[C@H](O)[C@@H](O[C@H]3O[C@H](CO)[C@@H](O)[C@H](N)[C@H]3O)[C@H](N)C[C@@H]2N)[C@H](O)[C@@H](O)[C@@H]1O,N-319 (HIV-),-,4 µg/mL
O=C(O)c1cn(C2CC2)c2c(F)c(N3CCNCC3)c(F)cc2c1=O,PI12/39,-,1 µg/mL
CCn1cc(C(=O)O)c(=O)c2cc(F)c(N3CCN(C)CC3)cc21,CIPT 140310030,-,20 µg/mL
CC1CCN(c2c(F)cc3c(=O)c(C(=O)O)cn(C4CC4)c3c2F)C1,1760694,-,8 µg/mL
NC[C@H]1O[C@H](O[C@H]2[C@H](O)[C@@H](O[C@H]3O[C@H](CO)[C@@H](O)[C@H](N)[C@H]3O)[C@H](N)C[C@@H]2N)[C@H](O)[C@@H](O)[C@@H]1O,Isolate C-16,-,>400 µg/mL
CN(C)C1CCN(c2c(F)cc3c(=O)c(C(=O)O)cn(C4CC4)c3c2F)C1,1760694,-,2 µg/mL
CC[C@@H](CO)NCCN[C@@H](CC)CO,N-314 (HIV-),-,8 µg/mL
CCNCC1CN(c2c(F)cc3c(=O)c(C(=O)O)cn(C4CC4)c3c2F)CC1CNCC,1760694,-,32 µg/mL
NCC[C@H](O)C(=O)N[C@@H]1C[C@H](N)[C@@H](O[C@H]2O[C@H](CN)[C@@H](O)[C@H](O)[C@H]2O)[C@H](O)[C@H]1O[C@H]1O[C@H](CO)[C@@H](O)[C@H](N)[C@H]1O,1110/HIV-,-,2 µg/mL
CO[C@H]1/C=C/O[C@@]2(C)Oc3c(C)c(O)c4c(O)c(c5c(c4c3C2=O)NC2(CCN(CC(C)C)CC2)N=5)=NC(=O)/C(C)=C\C=C\[C@H](C)[C@H](O)[C@@H](C)[C@@H](O)[C@@H](C)[C@H](OC(C)=O)[C@@H]1C,1854-4,-,0.25 µg/mL
O=C(O)c1cn(C2CC2)c2c(F)c(N3CCS(=O)CC3)c(F)cc2c1=O,1760694,-,4 µg/mL
CC1COc2c(N3CCN(C)CC3)c(F)cc3c(=O)c(C(=O)O)cn1c23,CIPT 14031003,-,10 µg/mL
CO[C@H]1/C=C/O[C@@]2(C)Oc3c(C)c(O)c4c(O)c(c(/C=N/N5CCN(C/C=C/c6ccccc6)CC5)c(O)c4c3C2=O)NC(=O)/C(C)=C\C=C\[C@H](C)[C@H](O)[C@@H](C)[C@@H](O)[C@@H](C)[C@H](OC(C)=O)[C@@H]1C,LR541,-,0.015 µg/mL

A second listing of 2 rows from above:

structure,strain or isolate,method,result
CCn1cc(C(=O)O)c(=O)c2cc(F)c(N3CCN(C)CC3)cc21,CIPT 140310030,-,20 µg/mL
CC1COc2c(N3CCN(C)CC3)c(F)cc3c(=O)c(C(=O)O)cn1c23,CIPT 14031003,-,10 µg/mL